Measured values taken from patent US10512665B2, “Methods and compositions related to inhibition of viral entry” (University of Utah Research Foundation, priority 2007, dated 2019).

Biological target: T1, IZN36 (Human immunodeficiency virus type 1 group M subtype B, UniProt P04578)
T1 construct: an immobilized N-trimer mimic (IZN36); IZ designed trimeric isoleucine-zipper coiled coil, fused before the gp41 segment (own knowledge from the name IZN36); His-tag (cleaved yes); made in house; host or cells: E. coli BL21(DE3)pLysS, pET14b
Experiment: Surface plasmon resonance binding to immobilized N-trimer mimic IZN36
Design: species or system HIV-1
Conditions: SPR, 20° C.
Protocol: To determine if the improved potency of these inhibitors stems from optimization of affinity for the pocket, the binding properties of the D-peptides to an immobilized N-trimer mimic (IZN36) was characterized using surface plasmon resonance (SPR) (Table 3).
SPR was performed essentially as described (Hamburger 2005). Briefly, biotinylated IZN36 was captured onto a SA (Pierce) surface, and a free SA surface served as the reference control. Each binding study was performed in duplicate at 20° C. using a 3-fold decreasing concentration series starting from 10 μM for D10-p5, 189 nM for PEG-(PIE)2, or 2 (all others). Only 2K-PIE1 and PEG-(PIE)2 required a specific regeneration step (one 20 s pulse of 6M GuHCl). The IZN36 surface was very stable to this regeneration condition. Data were analyzed using Scrubber2 (BioLogic Software).

Substance | Kd [nM]
KGACDYPEWRWLCAA [PIE2] | 200
KGACDYKEWQWLCAA [PIE8] | 190
KGACDYPEWQWLCAA [PIE7] | 120
KKGACDYPEWRWLCAA [2K-PIE2] | 260
KKGACELLGWEWAWLCAA [D10-p5, reference compound] | 6800
PEG-(KGACDYPEWQWLCAA)2 [PEG-(PIE7)2] | ~1
